A mixed list of measured activities; the numbers were collected in NIAID ChemDB.

Shared fields: growth or infection tests; agent: Rhinovirus

Two numbers with a dash give a range or band. Inhibition is in % at the dose shown (toxicity tests: loss of growth or viability). ECn is the concentration giving n% inhibition of infection, replication or growth. Blank or dashed fields: not listed here. Conditions beyond the fields shown may differ between rows.

smiles,cell line,measure,strain or isolate,read by,tested at,value
c1ccc2c(c1)CCc1ccccc1C2,HELA-H1,EC50,TYPE 14,cytopathic effect,,>200 µM
Clc1ccc(C2CCc3ccccc3O2)c(Cl)c1,HeLa,EC50,TYPE 9,cytopathic effect,,0.25 µg/mL
O=C(O)Cc1csc(/N=C2\SCC3Cc4ccccc4CN23)n1,,MIC,TYPE 1B,,,0.15 µg/mL
CC(C)S(=O)(=O)n1c(N)nc2ccc(/C(=N/O)c3ccccc3)cc21,HeLa,EC50,TYPE 2,cytopathic effect,,0.06–0.12 µg/mL
O=c1c2ccccc2ccc2ccccc12,HELA-H1,inhibition,TYPE 16,plaque count,20 µM,90%
C#CC[C@@H](C(=O)N[C@H](/C=C/C(=O)OCC)C[C@@H]1CCNC1=O)n1cccc(NC(=O)c2cc(C)on2)c1=O,H1-HELA,EC50,Serotype 3,cytopathic effect / XTT,,0.021 µM
S=C(S)N1CCCC1,HeLa,inhibition,TYPE 8,,31 µM,10%
N=C(N)CCNC(=O)[C@H]1CCC(N)=N1,,MIC,TYPE 2,,,3 µg/mL
CN1CCC2(CC3CCC2(C)C3(C)C)C1,HeLa,inhibition,,,100 µM,>70%
Cc1cccc(N2CCN(c3ccc(Br)nn3)CC2)c1,HeLa,EC50,TYPE 2,cytopathic effect,,0.0078 µg/mL
OC1c2ccccc2C=Cc2ccccc21,HELA-H1,EC50,TYPE 14,cytopathic effect,,15 µM
C1CC2(CN1)C1CC3CC(C1)CC2C3,HeLa,inhibition,,,100 µM,>70%
COc1ccc(N2CCN(c3cccc(C)c3)CC2)nn1,HeLa,EC50,TYPE 2,cytopathic effect,,0.032 µg/mL
CCO/N=C/c1ccc(OCCC2CCN(c3ccc(C)nn3)CC2)cc1,KB,EC50,33342 (ICAM-1 receptor group 17),neutral red,,0.008 µM
CC(C)S(=O)(=O)n1c(N)nc2ccc(/C(=N/O)c3ccccc3)cc21,HeLa,EC50,Serotype 70,plaque count,,<0.01 µg/mL
Cc1ccc(C)c(CN2CCN(c3nc(C(=O)O)cs3)CC2)c1,HeLa,EC50,TYPE 2,cytopathic effect,,0.5 µg/mL
C1CCC2(CC1)CCNC2,HeLa,inhibition,,,100 µM,20–40%

A second listing of 2 rows from above:

smiles | cell line | measure | strain or isolate | read by | tested at | value
Clc1ccc(C2CCc3ccccc3O2)c(Cl)c1 | HeLa | EC50 | TYPE 9 | cytopathic effect |  | 0.25 µg/mL
Cc1cccc(N2CCN(c3ccc(Br)nn3)CC2)c1 | HeLa | EC50 | TYPE 2 | cytopathic effect |  | 0.0078 µg/mL